Paper PMC10525135 (Antibiotics, 2023)

Experiment: peptide made by a vendor (Fmoc solid-phase peptide synthesis)
Conditions: whole synthesis, reverse-phase high-performance liquid chromatography and mass spectrometry

## LLGDFFRKSKEKIGKEFKRIVQRIKDFLRNLVPRTES
  final HPLC purity: 99%

Plain letter strings leave the end groups untold.
